MIC data for eight molecules are collected here from patent publication US3945994A, “Novel acid compounds” (Gist-Brocades N.V., priority 1973, dated 1976).

≈ marks a conversion by molar mass, not a printed value.

Test systems include Shigella equirulis T 3; Brucella suis A 1088; Proteus mirabilis L 93.
Common to all, as to test: agar serial dilution test, MIC
Common to all, as to details: 24 hours at 37°C

Test [1] concerns Brucella melitensis A 488.
Test [2] deals with Staphylococcus aureus A 2001. Type of test: cell-based.
The test system of test [3] is Pasteurella multocida A 723. The class given is cell-based.
Another test relates to Proteus mirabilis H 3. Type of test: cell-based.
The subject of test [4] is Pseudomonas aeruginosa 2396. The class given is cell-based.
Test [5] relates to Pseudomonas aeruginosa H 10. Type of test: cell-based.
The test system of test [6] is Streptococcus haemolyticus A 266. The class given is cell-based.
The next test has as its system Escherichia coli U 20. The class given is cell-based.
Test [7] concerns Haemophilus influenzae A 1030. The class given is cell-based.
In test [8] the test system is Diplococcus pneumoniae L 54. Type of test: cell-based.
The next test concerns Proteus mirabilis A 1200. Type of test: cell-based.
Test [9] concerns Klebsiella pneumoniae A 809. Type of test: cell-based.
For a further test, the system named is Proteus rettgeri A 821. Type of test: cell-based.
Test [10] deals with Staphylococcus aureus A 321. Type of test: cell-based.
Test [11] deals with Pseudomonas aeruginosa Wyeth A 1058. The class given is cell-based.
In the next test the test system is Proteus morganii 2241. Type of test: cell-based.
Test [12] relates to Streptococcus haemolyticus A 1088. Type of test: cell-based.
Test [13] has as its system Salmonella typhimurium R172. Type of test: cell-based.
In test [14] the test system is Staphylococcus aureus A 355'. The class given is cell-based.
The test system of test [15] is Staphylococcus aureus A 2000. Type of test: cell-based.
The test system of test [16] is Streptococcus faecalis L 80. The class given is cell-based.
Another test has as its system Salmonella dublin P 43. The class given is cell-based.
For test [17], the system named is Salmonella typhimurium R 127. The class given is cell-based.

Take `CCOP(=O)(NC(=O)N[C@@H](C(=O)N[C@@H]1C(=O)N2[C@@H]1SC(C)(C)[C@@H]2C(=O)O)c1ccccc1)OCC`: the MIC came out at 50 µg/mL (≈ 94.6 µM) against Shigella equirulis T 3; 90 µg/mL (≈ 170 µM) in test [1]; 6 µg/mL (≈ 11.4 µM) in test [2]; 3 µg/mL (≈ 5.68 µM) in test [3]; 25 µg/mL (≈ 47.3 µM) against Proteus mirabilis H 3; 50 µg/mL (≈ 94.6 µM) in test [4]. In addition, the MIC in test [5] was found to be 3 µg/mL (≈ 5.68 µM); in [6], 6 µg/mL (≈ 11.4 µM); against Escherichia coli U 20, 25 µg/mL (≈ 47.3 µM); in test [7] it was 100 µg/mL (≈ 189 µM); in test [8], 0.5 µg/mL (≈ 0.946 µM); with Proteus mirabilis A 1200, 6 µg/mL (≈ 11.4 µM). In addition, the MIC in test [9] stood at 1.0 µg/mL (≈ 1.89 µM); in the test with Proteus rettgeri A 821, 3 µg/mL (≈ 5.68 µM); in test [10], 1.5 µg/mL (≈ 2.84 µM); in test [11] it was 50 µg/mL (≈ 94.6 µM); in the test with Proteus morganii 2241, 6 µg/mL (≈ 11.4 µM).
For the molecule `CC1(C)S[C@@H]2[C@H](NC(=O)[C@H](NC(=O)NP(=O)(OCc3ccccc3)OCc3ccccc3)c3ccccc3)C(=O)N2[C@H]1C(=O)O`, the MIC came to 3 µg/mL (≈ 4.6 µM) against Shigella equirulis T 3; 1.5 µg/mL (≈ 2.3 µM) against Brucella suis A 1088; 0.25 µg/mL (≈ 0.383 µM) in [12]; 0.5 µg/mL (≈ 0.766 µM) in test [3]; 25 µg/mL (≈ 38.3 µM) in test [13]; 6 µg/mL (≈ 9.19 µM) in [14]. Besides, the MIC came out at 3 µg/mL (≈ 4.6 µM) in the test on Proteus mirabilis H 3; 25 µg/mL (≈ 38.3 µM) in test [4]; 50 µg/mL (≈ 76.6 µM) in test [5]; 6 µg/mL (≈ 9.19 µM) in the test on Escherichia coli U 20; 6 µg/mL (≈ 9.19 µM) in test [15]; 0.5 µg/mL (≈ 0.766 µM) in [8]. Moreover, the MIC amounted to 3 µg/mL (≈ 4.6 µM) with Proteus mirabilis A 1200, 25 µg/mL (≈ 38.3 µM) in test [9], 0.75 µg/mL (≈ 1.15 µM) in [10] and 50 µg/mL (≈ 76.6 µM) in test [11].
Take “D-6-[α-{3-(5-methyl-1,2,4-oxadiazol-3-yl-methylamino-sulfonyl)-ureido}-benzylcarbonamido]-penicillanic acid”: the MIC in the test on Brucella suis A 1088 was determined as 3 µg/mL; in test [12], 0.5 µg/mL; in test [3] it was 3 µg/mL; in test [13] it was 25 µg/mL; in test [16], 25 µg/mL; with Proteus mirabilis H 3, 1.5 µg/mL. The MIC in test [4] amounted to 50 µg/mL; in [5], 100 µg/mL; in the test on Escherichia coli U 20, 6 µg/mL; in the test with Proteus mirabilis A 1200, 1.5 µg/mL; in test [9], 50 µg/mL; against Proteus morganii 2241, 6 µg/mL.
As to `CCOP(=O)(NC(=S)N[C@@H](C(=O)N[C@@H]1C(=O)N2[C@@H]1SC(C)(C)[C@@H]2C(=O)O)c1ccccc1)OCC`, the MIC was 100 µg/mL (≈ 184 µM) against Shigella equirulis T 3; 3 µg/mL (≈ 5.51 µM) in the test on Proteus mirabilis L 93; 1.0 µg/mL (≈ 1.84 µM) in [2]; 1 µg/mL (≈ 1.84 µM) in test [3]; 100 µg/mL (≈ 184 µM) in [16]; 100 µg/mL (≈ 184 µM) in test [14]. Further, the MIC against Proteus mirabilis H 3 is 50 µg/mL (≈ 91.8 µM); in test [4], greater than 100 µg/mL; in test [5], 0.5 µg/mL (≈ 0.918 µM); in [6], 0.25 µg/mL (≈ 0.459 µM); against Escherichia coli U 20 it was 6 µg/mL (≈ 11 µM); in [15] it was 50 µg/mL (≈ 91.8 µM). Besides, the MIC is greater than 100 µg/mL in test [7]; greater than 100 µg/mL in the test on Salmonella dublin P 43; 0.5 µg/mL (≈ 0.918 µM) in test [8]; 0.5 µg/mL (≈ 0.918 µM) in [9]; greater than 100 µg/mL in the test on Proteus rettgeri A 821; 3 µg/mL (≈ 5.51 µM) in test [10]. Moreover, the MIC in test [11] is greater than 100 µg/mL; against Proteus morganii 2241, 25 µg/mL (≈ 45.9 µM).
In the case of `CC1(C)S[C@@H]2[C@H](NC(=O)[C@H](NC(=O)NP(C)(C)=O)c3ccccc3)C(=O)N2[C@H]1C(=O)O`, the MIC against Shigella equirulis T 3 is 1.5 µg/mL (≈ 3.2 µM); in test [1], 1.5 µg/mL (≈ 3.2 µM); in the test on Proteus mirabilis L 93 it was 1.5 µg/mL (≈ 3.2 µM); in test [2], 1.5 µg/mL (≈ 3.2 µM); in [3], 0.12 µg/mL (≈ 0.256 µM); in test [16], 1 µg/mL (≈ 2.13 µM). For the same molecule, the MIC in [14] was 3 µg/mL (≈ 6.4 µM); against Proteus mirabilis H 3, 25 µg/mL (≈ 53.4 µM); in test [17], 25 µg/mL (≈ 53.4 µM); in test [4] it was 25 µg/mL (≈ 53.4 µM); in [5] it was greater than 50 µg/mL; in test [6], 0.03 µg/mL (≈ 0.064 µM). For the same molecule, the MIC with Escherichia coli U 20 is 25 µg/mL (≈ 53.4 µM); in test [15] it was 3 µg/mL (≈ 6.4 µM); in test [7], greater than 100 µg/mL; against Salmonella dublin P 43, 25 µg/mL (≈ 53.4 µM); in test [8], 0.25 µg/mL (≈ 0.534 µM); in test [9] it was 50 µg/mL (≈ 107 µM). In addition, the MIC against Proteus rettgeri A 821 came out at 1.5 µg/mL (≈ 3.2 µM); in test [10] it was 0.5 µg/mL (≈ 1.07 µM); in [11] it was 50 µg/mL (≈ 107 µM); in the test on Proteus morganii 2241, 100 µg/mL (≈ 213 µM).
Consider `CC1=C(C)CP(=O)(NC(=O)N[C@@H](C(=O)N[C@@H]2C(=O)N3[C@@H]2SC(C)(C)[C@@H]3C(=O)O)c2ccccc2)C1`, for which the MIC amounted to 1.5 µg/mL (≈ 2.88 µM) against Shigella equirulis T 3; 1.5 µg/mL (≈ 2.88 µM) in the test with Brucella suis A 1088; 1.5 µg/mL (≈ 2.88 µM) in the test on Proteus mirabilis L 93; 0.12 µg/mL (≈ 0.231 µM) in test [12]; 6 µg/mL (≈ 11.5 µM) in test [2]; 0.75 µg/mL (≈ 1.44 µM) in [3]. For the same molecule, the MIC in test [13] was determined as 25 µg/mL (≈ 48 µM); in [16], 6 µg/mL (≈ 11.5 µM); in [14], 6 µg/mL (≈ 11.5 µM); in test [4], 50 µg/mL (≈ 96.1 µM); in test [5], 100 µg/mL (≈ 192 µM); in test [15], 6 µg/mL (≈ 11.5 µM). Also, the MIC was found to be 6 µg/mL (≈ 11.5 µM) in the test with Salmonella dublin P 43; 0.25 µg/mL (≈ 0.48 µM) in [8]; 6 µg/mL (≈ 11.5 µM) in the test with Proteus mirabilis A 1200; 25 µg/mL (≈ 48 µM) in [9]; 0.75 µg/mL (≈ 1.44 µM) in test [10]; 50 µg/mL (≈ 96.1 µM) in [11].
Take `CC1(C)S[C@@H]2[C@H](NC(=O)[C@H](NC(=S)NP(=O)(c3ccccc3)c3ccccc3)c3ccccc3)C(=O)N2[C@H]1C(=O)O`: the MIC in test [1] was found to be 0.5 µg/mL (≈ 0.821 µM); against Proteus mirabilis L 93, 6 µg/mL (≈ 9.86 µM); in test [3], 3 µg/mL (≈ 4.93 µM); in [14] it was 50 µg/mL (≈ 82.1 µM); in the test with Proteus mirabilis H 3, 50 µg/mL (≈ 82.1 µM); in [17], 100 µg/mL (≈ 164 µM). Moreover, the MIC was greater than 100 µg/mL in [4]; greater than 100 µg/mL in test [5]; 0.1 µg/mL (≈ 0.164 µM) in [6]; 25 µg/mL (≈ 41.1 µM) against Escherichia coli U 20; 2 µg/mL (≈ 3.29 µM) in [7]; 50 µg/mL (≈ 82.1 µM) with Salmonella dublin P 43. Further, the MIC in [8] was 0.5 µg/mL (≈ 0.821 µM); in the test with Proteus mirabilis A 1200, 50 µg/mL (≈ 82.1 µM); in test [9], greater than 100 µg/mL; against Proteus rettgeri A 821, 6 µg/mL (≈ 9.86 µM); in test [10], 3 µg/mL (≈ 4.93 µM); in test [11], greater than 100 µg/mL. The MIC against Proteus morganii 2241 is greater than 100 µg/mL.
Consider `CC1=C(C(=O)O)N2C(=O)[C@@H](NC(=O)[C@H](NC(=O)NP(=O)(O)OCC(C)C)c3ccccc3)[C@H]2SC1`, for which the MIC against Shigella equirulis T 3 is 6 µg/mL (≈ 11.4 µM); against Brucella suis A 1088 it was 50 µg/mL (≈ 95 µM); in the test with Proteus mirabilis L 93, 25 µg/mL (≈ 47.5 µM); in test [12], 3 µg/mL (≈ 5.7 µM); in test [13], 100 µg/mL (≈ 190 µM); in test [16], greater than 100 µg/mL. Further, the MIC was 50 µg/mL (≈ 95 µM) in [14]; greater than 100 µg/mL against Proteus mirabilis H 3; greater than 100 µg/mL in test [4]; greater than 100 µg/mL in test [5]; 100 µg/mL (≈ 190 µM) with Escherichia coli U 20; 25 µg/mL (≈ 47.5 µM) in test [15]. Moreover, the MIC in the test on Salmonella dublin P 43 was 50 µg/mL (≈ 95 µM); against Proteus mirabilis A 1200, greater than 100 µg/mL; in test [9], 25 µg/mL (≈ 47.5 µM); against Proteus rettgeri A 821, 3 µg/mL (≈ 5.7 µM); in test [11] it was greater than 100 µg/mL; against Proteus morganii 2241, greater than 100 µg/mL.
